Compound potency records, mixed from different reports. Data source: NIAID ChemDB in PubChem.

All rows: toxicity to cultured cells; cells: HEK 293; read-out: CC50

Blank or dashed fields: not listed here.

| compound | read by | result |
|---|---|---|
| CCOC(=O)CCCCCOc1cccc(CN(C(=O)c2ccc(-c3cc(OC)ccc3F)cc2)C(C)C)c1 |  | >20 µM |
| CC(C)[C@@H]1CC[C@]2(C=O)CC[C@]3(C)[C@H](CC[C@@H]4[C@@]5(C)CC[C@H](OC(=O)CC(C)(C)C(=O)O)C(C)(C)[C@@H]5CC[C@]43C)[C@@H]12 |  | >300 µM |
| CN(C)N(Cc1ccccc1)C(=O)N[C@H](CO)Cc1ccccc1 | MTT | 57.2 µM |
| O=C1NC(=Nc2ccc(F)c(Cl)c2)S/C1=C\c1ccc(-c2ccc(C(=O)O)c(O)c2)o1 | MTT | 12 µM |
| COc1ccc2c(Cc3c4ccccc4cc4ccccc34)cncc2c1O | fluorescence | >50 µM |
| CC(C)[C@@H]1CC[C@]2(C=O)CC[C@]3(C)[C@H](CC[C@@H]4[C@@]5(C)CCC(OC(=O)CC(C)(C)C(=O)[O-])C(C)(C)[C@@H]5CC[C@]43C)[C@@H]12 |  | >300 µM |
| Cc1ccc(C)c(SCc2nc3cc4ccccc4cc3nc2CSc2cc(C)ccc2C)c1 | fluorescence | >20 µM |
| O=C(O)CC(O)CN=Cc1ccccc1O |  | >100 µM |
| CC(C)(CC(=O)O[C@H]1CC[C@]2(C)[C@H]3CC[C@@H]4[C@@H]5C(CC[C@@]4(C)[C@]3(C)CC[C@H]2C1(C)C)[C@H]1CC(C)(C)[C@@H]5NC1=O)C(=O)O |  | >150 µM |
| CN[C@@H](CC1=c2c(O)c3c(c(O)c2N=C1)=NC=CS3(=O)=O)C(=O)O |  | >40 µM |
| O=C1/C(=C/c2ccc(-c3cc(C(F)(F)F)ccc3Cl)o2)SC(=S)N1Cc1ccc(Cl)cc1 | MTT | 4.2 µM |
| COc1c(C)c(O)c(C)c(O)c1C(=O)/C=C/c1ccccc1 | sulforhodamine | 2.39 µg/mL |
| N=C(N)c1ccc(OCc2cccc(COc3ccc(C(=N)N)cc3)c2)cc1 | absorbance | >100 µM |
| C=C(C)[C@@H]1CC[C@]2(C=O)CC[C@]3(C)[C@H](CC[C@@H]4[C@@]5(C)CCC(OC(=O)CC(C)(C)C(=O)[O-])C(C)(C)[C@@H]5CC[C@]43C)[C@@H]12 |  | 29 µM |
| CC(C)N(Cc1cccc(OCCCCCC(=O)OC(=O)O)c1)C(=O)c1ccc(-c2cccc(C#N)c2)cc1 |  | >20 µM |
| O=C(N(Cc1ccccc1)[C@H](CO)Cc1ccccc1)N(Cc1ccccc1)N1CCCCC1 | MTT | 12.8 µM |
| CCCNCc1cccc(OCCCCCC(=O)OCC)c1 |  | >20 µM |
| CC(C)N1CC[C@H](OC(c2ccccc2)c2ccccc2)C[C@@H]1c1ccccc1 |  | 69.38 µg/mL |
| COc1cc2c(cc1OC)C(CC1(C)OCCO1)=NCC2 |  | <7.5 µM |
| O=C(N[C@H](CO)Cc1ccc(O)cc1)N(Cc1ccccc1)N1CCCCC1 | MTT | 47.9 µM |
| CCOC(=O)c1cc(O)c(O)c(O)c1 | MTS | >200 µM |
| CCCN(Cc1ccc(OCC(=O)OCC)cc1)C(=O)c1ccc(-c2ccc3c(c2)OCO3)cc1 |  | >20 µM |
| COCCN1CCn2cc(C(=O)NCc3ccc(F)cc3F)c(=O)c(O)c2C1=O | luminescence | 0.1385 µM |
| CC(C)N(Cc1cccc(OCCCCCC(=O)OC(=O)O)c1)C(=O)c1ccc(-c2cccc(OC(F)(F)F)c2)cc1 |  | >20 µM |
| Cc1ccc(-n2nc(C(C)(C)C)cc2Nc2nc3ccccc3nc2NCCCO)cc1 | fluorescence | >20 µM |

CCn is the concentration with n% toxicity to the cells. Neighbouring rows are from separate reports.